Chains of the proteins cited; added tags and fusions are not shown. Residues count along the entry.
UniProt P03454, 18-565: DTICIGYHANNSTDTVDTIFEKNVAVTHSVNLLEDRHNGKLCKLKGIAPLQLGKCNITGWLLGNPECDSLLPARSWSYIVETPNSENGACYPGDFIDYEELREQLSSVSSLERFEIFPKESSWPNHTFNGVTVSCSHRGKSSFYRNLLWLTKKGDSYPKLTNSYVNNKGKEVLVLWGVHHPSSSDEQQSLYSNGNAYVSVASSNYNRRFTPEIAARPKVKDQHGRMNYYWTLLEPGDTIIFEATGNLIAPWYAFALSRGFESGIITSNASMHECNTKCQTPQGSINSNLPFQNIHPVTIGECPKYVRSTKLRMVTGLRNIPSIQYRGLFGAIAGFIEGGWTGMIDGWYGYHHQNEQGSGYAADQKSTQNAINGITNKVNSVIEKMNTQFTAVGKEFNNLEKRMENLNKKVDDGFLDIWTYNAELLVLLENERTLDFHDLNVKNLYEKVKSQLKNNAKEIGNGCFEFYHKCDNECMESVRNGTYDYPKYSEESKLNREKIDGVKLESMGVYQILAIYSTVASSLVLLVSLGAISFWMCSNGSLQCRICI

In publication PMC10878280 (Journal of Virology, 2024):

B1: CR9114 scFv (scFv, V domains shown)
VH: QVQLVQSGAEVKKPGSSVKVSCKSSGGTSNNYAISWVRQAPGQGLDWMGGISPIFGSTAYAQKFQGRVTISADIFSNTAYMELNSLTSEDTAVYFCARHGNYYYYSGMDVWGQGTTVTVSS
VL: QSALTQPPAVSGTPGQRVTISCSGSDSNIGRRSVNWYQQFPGTAPKLLIYSNDQRPSVVPDRFSGSKSGTSASLAISGLQSEDEAEYYCAAWDDSLKGAVFGGGTQLTVL
notes: also called monovalent CR9114 scFv; CR9114 scFv 488
B2: CR9114 IgG (antibody, V domains shown)
VH: B1 VH
VL: B1 VL
notes: also called bivalent CR9114 IgG; not shown: ybbR, C-terminal, kept; copies: 2 + 2

Target: T1, hemagglutinin (HA) of A/WSN/1933, on transfected HEK-293T cells (Influenza A virus A/WSN/1933 (H1N1), UniProt P03454)
T1 construct: source: HEK-293T, transfected with HA-expressing plasmid, on cells
Assay: fluorescence imaging with FRAP of labelled antibody on transfected cells
Settings: one partner purified

Row | Binder | binding result
1 | B1 | binds
2 | B2 | binds
